Pooled drug test results. Numbers come from NIAID ChemDB, via PubChem.

Common to all: tests in culture; organism: Mycobacterium tuberculosis

Two numbers with a dash give a range or band.

compound	strain	conditions	dose	method	cells	endpoint	changes	value
COc1ccccc1/C=C1/SC(=O)N(CCNC(C)=O)C1=O	H37Rv			BACTEC		MIC bound		>12.5 µg/mL
CO[C@H]1/C=C/O[C@@]2(C)Oc3c(C)c(=O)c4c(O)c(c5[nH]c6ccccc6nc5c4c3C2=O)NC(=O)/C(C)=C\C=C\[C@H](C)[C@H](O)[C@@H](C)[C@@H](O)[C@@H](C)[C@H](OC(C)=O)[C@@H]1C	M. bovis Ravenel					MIC		0.03 µg/mL
COc1cc(OC)c2c(O)c3c(=O)cc(C)oc3c(-c3c4cc(=O)cc(OC)c4c(O)c4c(O)cc(C)oc34)c2c1	H37Rv					MIC		43 µM
Cc1ccc2c(c1)nc1cc(Nc3ccc(Cl)cc3)c(=NC3CCCCCCC3)cc-1n2-c1ccc(Cl)cc1	H37Rv (INH-resistant)					MIC		0.2 µg/mL
COC(=O)C1C(c2cc3cc(OC)ccc3nc2Cl)C2=C(CCCC2=O)N(c2cccnc2)C1N	H37Rv		6.25 µg/mL			inhibition		25%
O=C1OC2CCCCC2C2CCCCC12						MIC		0.05 µg/mL
CC1COc2c(N3CCN(C)CC3)c(F)cc3c(=O)c(C(=O)O)cn1c23	25 strains					MIC50		0.8 µg/mL
CCCCCCCCCN1C(=O)CC(SCCNC(=O)C2CCCCC2)C1=O	H37Rv					MIC		≤20 µg/mL
CC(C)N=c1cc2n(-c3ccc(Cl)cc3)c3ccccc3nc-2cc1Nc1ccc(Cl)cc1	H37Rv-MA			turbidity / fluorescence		MIC90		0.46 µM
CO[C@H]1/C=C/O[C@@]2(C)Oc3c(C)c(O)c4c(O)c(c(/C=N/N5CCN(C/C=C/c6ccccc6)CC5)c(O)c4c3C2=O)NC(=O)/C(C)=C\C=C\[C@H](C)[C@H](O)[C@@H](C)[C@@H](O)[C@@H](C)[C@H](OC(C)=O)[C@@H]1C	2230 (MDR)					MIC		4 µg/mL
Cc1[nH]c(C)c(CN2CCN(C)CC2)c1CN1CCN(C)CC1	103471					MIC		>64 µg/mL
CCc1nc2ccc(C)cc2n1CCCCNc1ccccc1	H37Rv-MA cydC::aph			turbidity / fluorescence		MIC90		0.17 µM
C=C[C@@]1(C)C=C2CC[C@@H]3[C@@](C)([C@H](O)CC(=O)[C@@]3(C)CC)[C@H]2C[C@H]1O						MIC		4 µg/mL
COc1cc(OC)c2c(O)c3c(c(-c4c5c(c(O)c6c(OC)cc(OC)cc46)C(=O)CC(C)(O)O5)c2c1)OC(C)(O)CC3=O	H37Rv					MIC		>180 µM
Cc1cc(=O)oc2ccc3c(=O)ccoc3c12	H37Rv			BACTEC		MIC		≥12.5 µg/mL
CO[C@H]1/C=C/O[C@@]2(C)Oc3c(C)c(O)c4c(O)c(c(N(N(C)CC5CCCO5)N(C)CC5CCCO5)c(O)c4c3C2=O)NC(=O)/C(C)=C\C=C\[C@H](C)[C@H](O)[C@@H](C)[C@@H](O)[C@@H](C)[C@H](OC(C)=O)[C@@H]1C	M. bovis Ravenel					MIC		0.003 µg/mL
NNC(=O)c1ccncc1	H37Rv					MIC		0.02 µg/mL
CCCCCCCCOC1OC(C)C(O[C@@H]2O[C@@H]([C@H](O)CO)[C@H](O)[C@H]2O)C(O)C1O	H37Ra					MIC		>128 µg/mL
Cc1ccc(-n2cc(-c3ccc(Cl)cc3)c3c2N=CN2NC(c4ccco4)=NC32)cc1	H37Rv			BACTEC		MIC bound		>12.5 µg/mL
C[C@@H](B1OC2CC3CC(C3(C)C)[C@@]2(C)O1)[C@@H](Cc1ccccc1)NC(=O)[C@@H]1CCCN1	H37Rv					MIC		≤500 µg/mL
COc1nc2ccc(Br)cc2cc1[C@@H](c1ccccc1)[C@@](O)(CCN(C)C)c1cccc2ccccc12	H37Rv-MA cydC::aph			turbidity / fluorescence		MIC90		0.43 µM
Cc1cc(CN2CCN(C)CC2)c(C)n1Cc1ccccc1	103471					MIC		8 µg/mL
CC1(C)C2CC3OB(C[C@@H](Cc4ccccc4)NC(=O)[C@@H](N)Cc4c[nH]c5ccccc45)O[C@]3(C)C1C2	H37Rv					MIC		≤50 µg/mL
C=C1C(=O)O[C@H]2[C@H]1[C@H](OC(=O)C=C(C)C)CC1=C[C@H](C[C@]3(C)O[C@H]23)OC1=O	H37Rv			BACTEC		MIC bound		>12.5 µg/mL
OC1CC(O)CC(OC2CCCCC2)C1						MIC		0.06 µg/mL
CCCCCCCCNC1CC(=O)N(CCCCCCCC)C1=O	Clinical isolate (isoniazid-resistant)					MIC		≤20 µg/mL
Cc1ccc(NCC(=O)NN)cc1C	H37Rv			BACTEC		MIC bound		>12.5 µg/mL
NNC(=O)c1ccncc1	H37Rv					EC50		>1000 µg/mL
O=C1c2ccccc2C(=O)c2sc(Nc3ccccc3C(F)(F)F)nc21	H37Rv			BACTEC	VERO	MIC		0.8 µg/mL
CCCCN1C(=O)C=CC1=O	H37Rv					MIC		≤20 µg/mL
NC(=O)N=Nc1c2c3ccccc3[nH]c(N3CCC(O)CC3)c-2c2ccccc12	H37Rv			resazurin / fluorescence		MIC90		>20 µg/mL
CO[C@H]1/C=C/O[C@@]2(C)Oc3c(C)c(O)c4c(O)c(c(N(N5CCOCC5)N5CCOCC5)c(O)c4c3C2=O)NC(=O)/C(C)=C\C=C\[C@H](C)[C@H](O)[C@@H](C)[C@@H](O)[C@@H](C)[C@H](OC(C)=O)[C@@H]1C	M. bovis Ravenel					MIC		0.003 µg/mL
CCCCCCn1c(-c2ccc(Cl)cc2)cc(CN2CCN(C)CC2)c1C	103471					MIC		8 µg/mL
O=c1c2ccccc2nc(-c2ccccc2)n1-c1nnc(SCC2CO2)s1	H37Rv					MIC		>40 µg/mL
COc1cc(Br)c2c3c1OC1C(=O)CCC4C(C2)N(C)CCC314	H37Rv			BACTEC		MIC bound		>12.5 µg/mL
CC(C)(C)c1ccc(CNc2ccc(N3CCSCC3)cc2)cc1	103471					MIC		2 µg/mL
CCCCCCC#Cc1cncc(-c2nnc(SCc3ccccc3)n2C)c1	Erdman			resazurin		EC50		175 µM
CC1=CC(=O)N(c2ccc(N3CCCCC3)cc2)C1=O	H37Ra					MIC		≤20 µg/mL
CC1=NN(c2ccccc2)C(=O)C1N=Nc1ccc(S(=O)(=O)Nc2nnc(C)s2)cc1	TAC-R					MIC		3.1 µg/mL
O=C(O)CSc1nnc(-n2c(-c3ccccc3)nc3ccc(I)cc3c2=O)s1	H37Rv					MIC		10 µg/mL
Cc1ccc2nc(Cl)c(C3C4=C(CCCC4=O)N(c4cccnc4)C(N)C3C#N)cc2c1	H37Rv		6.25 µg/mL			inhibition		20%
CC1(C)C2CC3OB(C[C@@H](Cc4ccccc4)NC(=O)[C@@H](N)CCCN=C(N)N)O[C@]3(C)C1C2	H37Rv			agar		MIC		≤50 µg/mL
Nc1nc(CCl)cs1	H37Rv		6.25 µg/mL	BACTEC		inhibition		0%
Cc1ccc(/C=C/C(=O)Oc2ccc(/C=C3\CCCCC3=O)cc2)cc1	H37Rv					EC50		>12.5 µg/mL
COc1cc(C(=O)C/C(CCC(=O)Nc2ccc(Cl)cc2C)=N/NC(=O)C(N)=O)ccc1O	H37Rv		12.5 µg/mL	BACTEC		inhibition		24%
c1ccc(C2=NCCN2)c(NCc2cccc3ccccc23)c1	103471					MIC		2 µg/mL
CC1(C)OCC2OC3(C(=O)O)OC(C)(C)OC3C2O1	H37Rv			BACTEC		MIC bound		>12.5 µg/mL
CCCCCCCCCN1C(=O)CC(SCCN)C1=O	H37Rv					MIC		≤20 µg/mL
CCOC(=O)C1C(c2cc3cc(OC)ccc3nc2Cl)C2=C(CCCC2=O)N(c2cccnc2)C1N	H37Rv					MIC		12.5 µg/mL
CCCCCCn1c(C)c(CN2CCOCC2)c(CN2CCOCC2)c1C	103471					MIC		>64 µg/mL
O=c1c2cc(I)ccc2nc(-c2ccccc2)n1-c1nnc(SCC2CO2)s1	H37Rv					MIC		>40 µg/mL
CC1(C)C2CC3OB([C@H](Cc4ccccc4)[C@@H](Cc4ccccc4)NC(=O)[C@@H](N)CCCCN)O[C@]3(C)C1C2	H37Rv			agar		MIC		≤50 µg/mL
COc1cc(/C=N/NC(=O)c2cccs2)cc(OC)c1OC	H37Rv		12.5 µg/mL	BACTEC		inhibition		35%
COC(=O)C1C(c2cc3ccccc3nc2Cl)C2=C(CCCC2=O)N(c2cccnc2)C1N	H37Rv		6.25 µg/mL			inhibition		90%
CCCCCCC#Cc1cncc(-c2nnc(SCc3cccc([N+](=O)[O-])c3)n2C)c1				resazurin		EC50		31 µM
Nc1cc2n[nH]nc2c(=O)[nH]1	H37Rv			BACTEC		MIC		≥12.5 µg/mL
C[C@@H](NC(=O)[C@@H](N)Cc1ccccc1)[C@@H](Cc1ccccc1)B1OC2CC3CC(C3(C)C)[C@@]2(C)O1	H37Rv			agar		MIC		≤50 µg/mL
CO[C@H]1C[C@@H]2\C=C(C)/C=C/C=C\C(=O)N[C@H](c3ccccc3)C/C=C/CC[C@H](O)CC(=O)C2=C1O	INH-r					MIC		3.1 µg/mL
CCCCCCCCCN1C(=O)CC(NC(C)CCN(CC)CC)C1=O	Clinical isolate (isoniazid-resistant)					MIC		≤20 µg/mL
C=C(C)C1CC=C(C)/C(=N/NC(=O)c2cccnc2)C1	H37Rv				VERO	MIC		0.4 µg/mL
Cc1c(CN2CCOCC2)c(CN2CCOCC2)c(-c2ccc(Cl)cc2)n1C1CCCCC1	103471					MIC		4 µg/mL
NNC(=O)c1ccncc1	H37Rv	pH 6		resazurin		MIC		0.2 µM
COCCNC(=O)c1cnccn1	H37Rv			BACTEC		MIC bound		>12.5 µg/mL
NCCCC[C@H](N)C(=O)N[C@@H](CB(O)O)Cc1ccccc1	H37Rv					MIC		≤50 µg/mL
O=[N+]([O-])[O][Ga]([O][N+](=O)[O-])[O][N+](=O)[O-]	MDR isolates					EC50		<500 µM
N[C@@H](Cc1ccccc1)C(=O)N[C@@H](CB(O)O)Cc1ccccc1	H37Rv			agar		MIC		≤500 µg/mL
C=CCSc1nnc(-n2c(-c3ccccc3)nc3ccc(Br)cc3c2=O)s1	H37Rv					MIC		>40 µg/mL
C[C@@H](NC(=O)[C@@H](N)CCCCN)[C@@H](Cc1ccccc1)B1OC2CC3CC(C3(C)C)[C@@]2(C)O1	H37Rv					MIC		≤5 µg/mL
S=C1N(CN2CCCCC2)CCN1CN1CCCCC1	H37Rv		12.5 µg/mL	BACTEC		inhibition		0%
CCc1nc2ccccc2n1CCCCSc1nc(-c2ccccc2)cs1	H37Rv-LP			turbidity / fluorescence		MIC90		1.1 µM
OC1CCC(OC2CCCCC2O)CC1						MIC		0.13 µg/mL
CO[C@H]1/C=C/O[C@@]2(C)Oc3c(C)c(O)c4c(O)c(c(/C=N/N5CCN(C)CC5)c(O)c4c3C2=O)NC(=O)/C(C)=C\C=C\[C@H](C)[C@H](O)[C@@H](C)[C@@H](O)[C@@H](C)[C@H](OC(C)=O)[C@@H]1C	H37Rv			resazurin		MIC	Rifampicin-resistant (rRMP)	>2 µM
CC(=O)N(O)C/C=C/P(=O)(O)O				broth dilution		MIC99		>200 µg/mL
COC1CCC(OC2CCCCC2OC)CC1						MIC		>0.14 µg/mL
CO[C@H]1/C=C/O[C@@]2(C)Oc3c(C)c(O)c4c(c3C2=O)C(=O)C=C(NC(=O)/C(C)=C\C=C\[C@H](C)[C@H](OC=O)[C@@H](C)[C@@H](O)[C@@H](C)[C@H](OC(C)=O)[C@@H]1C)C4=O	H37Rv			BACTEC		MIC		0.2 µg/mL
CCCCCCCCCN1C(=O)CC(NCCN(CCCC)CCCC)C1=O	H37Ra					MIC		≤20 µg/mL
NC(=S)/C(N)=N/Nc1ccc(Cl)cc1	H37Rv		12.5 µg/mL	BACTEC		inhibition		88%
CCCCCCCCCN1C(=O)C=CC1=O	H37Ra					MIC		≤20 µg/mL
Cc1ccc(NC(=O)c2cccc(F)c2)cc1Cl	H37Rv			BACTEC		MIC bound		≤12.5 µg/mL
CC(C)CCOc1ccc(NC(=S)NC2OC(CO)[C@@H](O)[C@H]2O)cc1	H37Rv			resazurin		MIC		3.125–6.25 µg/mL

Repeating the first 11 entries:

compound,strain,conditions,dose,method,cells,endpoint,changes,value
COc1ccccc1/C=C1/SC(=O)N(CCNC(C)=O)C1=O,H37Rv,,,BACTEC,,MIC bound,,>12.5 µg/mL
CO[C@H]1/C=C/O[C@@]2(C)Oc3c(C)c(=O)c4c(O)c(c5[nH]c6ccccc6nc5c4c3C2=O)NC(=O)/C(C)=C\C=C\[C@H](C)[C@H](O)[C@@H](C)[C@@H](O)[C@@H](C)[C@H](OC(C)=O)[C@@H]1C,M. bovis Ravenel,,,,,MIC,,0.03 µg/mL
COc1cc(OC)c2c(O)c3c(=O)cc(C)oc3c(-c3c4cc(=O)cc(OC)c4c(O)c4c(O)cc(C)oc34)c2c1,H37Rv,,,,,MIC,,43 µM
Cc1ccc2c(c1)nc1cc(Nc3ccc(Cl)cc3)c(=NC3CCCCCCC3)cc-1n2-c1ccc(Cl)cc1,H37Rv (INH-resistant),,,,,MIC,,0.2 µg/mL
COC(=O)C1C(c2cc3cc(OC)ccc3nc2Cl)C2=C(CCCC2=O)N(c2cccnc2)C1N,H37Rv,,6.25 µg/mL,,,inhibition,,25%
O=C1OC2CCCCC2C2CCCCC12,,,,,,MIC,,0.05 µg/mL
CC1COc2c(N3CCN(C)CC3)c(F)cc3c(=O)c(C(=O)O)cn1c23,25 strains,,,,,MIC50,,0.8 µg/mL
CCCCCCCCCN1C(=O)CC(SCCNC(=O)C2CCCCC2)C1=O,H37Rv,,,,,MIC,,≤20 µg/mL
CC(C)N=c1cc2n(-c3ccc(Cl)cc3)c3ccccc3nc-2cc1Nc1ccc(Cl)cc1,H37Rv-MA,,,turbidity / fluorescence,,MIC90,,0.46 µM
CO[C@H]1/C=C/O[C@@]2(C)Oc3c(C)c(O)c4c(O)c(c(/C=N/N5CCN(C/C=C/c6ccccc6)CC5)c(O)c4c3C2=O)NC(=O)/C(C)=C\C=C\[C@H](C)[C@H](O)[C@@H](C)[C@@H](O)[C@@H](C)[C@H](OC(C)=O)[C@@H]1C,2230 (MDR),,,,,MIC,,4 µg/mL
Cc1[nH]c(C)c(CN2CCN(C)CC2)c1CN1CCN(C)CC1,103471,,,,,MIC,,>64 µg/mL

MIC bound: limit read from a one-dose screen. A number after MIC or MFC names an inhibition level or a share of isolates. ECn is the concentration giving n% inhibition of infection, replication or growth. Inhibition is in % at the dose shown (toxicity tests: loss of growth or viability). An empty or dashed field is not shown. Conditions beyond the fields shown may differ between rows.